Ends that are not written are not given here.
test system: ribosomal A-site model RNA hairpin HRP6; experiment: ITC binding to bacterial ribosomal A-site model RNA hairpin HRP6 (Example 3); set-up: species or system Mycobacterium tuberculosis; conditions: sodium acetate buffer (pH 5.5); in parentheses

Row | Substance | binding order, M. tuberculosis (HRP6)
1 | H-CCCTPCTT (cysteine pairing not given here) [PNA13] | 1.1
2 | NH2-CCTGCTT [PNA11] | 1.1
3 | NH2-CCCTGCTT [PNA10] | 1.7
4 | NH2-CTL-ArgGCTT [GPNA12] | 1.8
5 | NH2CTL-ArgGCTL-ArgT [GPNA13] | 8.0
6 | NH2-CTGCTT [PNA12] | 1.6
7 | NH2-CCCTPexCTT [PNA14] | 1.1
8 | NH2-CCCTL-ArgGCTL-ArgT [GPNA10] | 2.9
